Measured values reported in US20230364121A1 (priority 2020, published 2023).

Tested on: human coronavirus alpha-229E
Type: cell-based, HCoV-229E

CNc1nc(N)nc2c1ncn2[C@@H]1O[C@H](CO[P@@](=O)(N[C@@H](C)C(=O)OC(C)C)Oc2ccccc2)[C@@H](O)[C@@]1(C)F [Compound 1A]
Neutral Red SI (CC50/EC50): >50
Visual SI (CC50/EC50): >50
VYR SI (CC50/EC90): >70
